Measurements reported in paper PMC7344389, “Discovery of Anti-Amoebic Inhibitors from Screening the MMV Pandemic Response Box on Balamuthia mandrillaris, Naegleria fowleri, and Acanthamoeba castellanii” (Pathogens, 2020).

Legend:
Type in all cases: cell-based
Conditions in all cases: SI = (IC50 A549)/(IC50 Amoeba)
[1] = test system: Balamuthia mandrillaris trophozoites; experiment: CellTiter-Glo 2.0 trophocidal assay, B. mandrillaris
Description: Pathogenic Balamuthia mandrillaris (CDC:[…]; American Type Culture Collection (ATCC) 50209), a GAE isolate, isolated from a pregnant baboon at the San Diego Zoo in 1986 was donated by Luis Fernando […] University, Mexico [43]. Trophozoites were routinely grown axenically in Balamuthia mandrillaris Itson (BMI) media at 37 °C, 5% CO2 in vented 75 cm^2 tissue culture flasks (Olympus, El Cajon, CA, USA), until the cells were 80-90% confluent. For sub-culturing, 0.25% Trypsin-EDTA (Gibco, Gaithersburg, MD, USA) cell detachment reagent was used to detach the cells from the culture flasks. The cells were collected by centrifugation at 4000 rpm at 4 °C. Complete BMI media is produced by the addition of 10% fetal bovine serum (FBS) and 125 μg of penicillin/streptomycin antibiotics. The trophocidal activity of compounds was assessed using the CellTiter-Glo 2.0 luminescent viability assay (Promega, Madison, WI, USA), as previously described. Trophozoites were routinely cultured as described above and only logarithmic trophozoites were used. […] Inhibitors were assessed for percent inhibition using the criteria of ≤33% growth inhibition (no inhibition), 33-67% growth inhibition (moderate inhibition), and ≥67% growth inhibition (strong inhibition). […] We used this process to reduce the number of potential false positives. […] All assays were incubated at each of the parasites' representative growth temperatures, described above, for 72 h. At the 72 h time point, 25 μL of CellTiter-Glo 2.0 reagent was added to all wells of the 96-well plates using the Biomek NX^P automated workstation. The plates were protected from light and contents were mixed using an orbital shaker at 300 rpm at room temperature for 2 min to induce cell lysis. After shaking, the plates were equilibrated at room temperature for 10 min to stabilize the luminescent signal. The adenosine triphosphate (ATP) luminescent signal (relative light units; RLUs) was measured at 490 nm with a SpectraMax I3X plate reader (Molecular Devices, Sunnyvale, CA, USA). Drug inhibitory concentration (IC50) curves were generated using total ATP RLUs, where controls were calculated as the average of replicates using the Levenberg-Marquardt algorithm, using DMSO as the normalization control, as defined in Collaborative Drug Discovery Inc. (CDD) Vault (Burlingame, CA, USA). Values reported are from a minimum of two biological replicates with standard deviations.

[2] = test system: Naegleria fowleri trophozoites; experiment: CellTiter-Glo 2.0 trophocidal assay, N. fowleri
Description: Pathogenic Naegleria fowleri (ATCC 30215), a clinical isolate obtained from a child in Adelaide, Australia, that died of PAM in 1969 was previously purchased from the American Type Culture Collection (ATCC). Trophozoites were routinely grown axenically at 34 °C in Nelson’s complete medium (NCM) in non-vented 75 cm^2 tissue culture flasks (Olympus, El Cajon, CA, USA), until the cells were 80–90% confluent. For sub-culturing, cells were placed on ice to detach the cells from the culture flasks. The cells were collected by centrifugation at 4000 rpm at 4 °C. Complete NCM media is produced by the addition of 10% FBS and 125 μg of penicillin/streptomycin antibiotics.
The trophocidal activity of compounds was assessed using the CellTiter-Glo 2.0 luminescent viability assay (Promega, Madison, WI, USA), as previously described. Trophozoites were routinely cultured as described above and only logarithmic trophozoites were used. In brief, B. mandrillaris, N. fowleri, or A. castellanii trophozoites cultured in their corresponding media were seeded at 16,000, 3000, or 1440 cells/well into white 96-well plates (Costar 3370), respectively. Initially all compounds were assessed in a single-point drug screen at 10 and 1 μM, as previously described. […] Control wells were supplemented with 0.1% (10 μM screening plate) or 0.01% (1 μM screening plate) DMSO, as the negative controls, or 12.5 μM of chlorhexidine, as the positive control. Following the single-point assays at 10 and 1 µM, we prioritized compounds for progression to IC50 determinations. […] We used this process to reduce the number of potential false positives. Drugs were cherry-picked, dissolved in the media specific to each parasite, and assessed in twofold serial dilutions from the highest concentration of 10 μM. All assays were incubated at each of the parasites’ representative growth temperatures, described above, for 72 h. At the 72 h time point, 25 μL of CellTiter-Glo 2.0 reagent was added to all wells of the 96-well plates using the Biomek NX^P automated workstation. The plates were protected from light and contents were mixed using an orbital shaker at 300 rpm at room temperature for 2 min to induce cell lysis. After shaking, the plates were equilibrated at room temperature for 10 min to stabilize the luminescent signal. The adenosine triphosphate (ATP) luminescent signal (relative light units; RLUs) was measured at 490 nm with a SpectraMax I3X plate reader (Molecular Devices, Sunnyvale, CA, USA). Drug inhibitory concentration (IC50) curves were generated using total ATP RLUs, where controls were calculated as the average of replicates using the Levenberg–Marquardt algorithm, using DMSO as the normalization control, as defined in Collaborative Drug Discovery Inc. (CDD) Vault (Burlingame, CA, USA). Values reported are from a minimum of two biological replicates with standard deviations.

[3] = test system: Acanthamoeba castellanii trophozoites; experiment: CellTiter-Glo 2.0 trophocidal assay, A. castellanii
Description: This isolate was also purchased from ATCC. Trophozoites were routinely grown axenically at 27 °C in Protease Peptone-Glucose Media (PG) in non-vented 75 cm^2 tissue culture flasks (Olympus, El Cajon, CA, USA), until the cells were 80–90% confluent. For sub-culturing, cells were mechanically harvested to detach the cells from the culture flasks. The cells were collected by centrifugation at 4000 rpm at 4 °C.
The trophocidal activity of compounds was assessed using the CellTiter-Glo 2.0 luminescent viability assay (Promega, Madison, WI, USA), as previously described. Trophozoites were routinely cultured as described above and only logarithmic trophozoites were used. […] Initially all compounds were assessed in a single-point drug screen at 10 and 1 μM, as previously described. […] We used this process to reduce the number of potential false positives. Drugs were cherry-picked, dissolved in the media specific to each parasite, and assessed in twofold serial dilutions from the highest concentration of 10 μM. All assays were incubated at each of the parasites’ representative growth temperatures, described above, for 72 h. At the 72 h time point, 25 μL of CellTiter-Glo 2.0 reagent was added to all wells of the 96-well plates using the Biomek NX^P automated workstation. The plates were protected from light and contents were mixed using an orbital shaker at 300 rpm at room temperature for 2 min to induce cell lysis. After shaking, the plates were equilibrated at room temperature for 10 min to stabilize the luminescent signal. The adenosine triphosphate (ATP) luminescent signal (relative light units; RLUs) was measured at 490 nm with a SpectraMax I3X plate reader (Molecular Devices, Sunnyvale, CA, USA). Drug inhibitory concentration (IC50) curves were generated using total ATP RLUs, where controls were calculated as the average of replicates using the Levenberg–Marquardt algorithm, using DMSO as the normalization control, as defined in Collaborative Drug Discovery Inc. (CDD) Vault (Burlingame, CA, USA). Values reported are from a minimum of two biological replicates with standard deviations.

Row | Compound | Selectivity Index (A549 IC50/B. mandrillaris IC50) [1] | Selectivity Index (A549 IC50/N. fowleri IC50) [2] | Selectivity Index (A549 IC50/A. castellanii IC50) [3]
1 | Nc1nc(N)c2c(Sc3ccccc3)cccc2n1 [MMV021759] | ≥2.22 |  | 
2 | Clc1cc(Cl)c2c(c1)CCc1ccccc1C2n1ccnc1 (stereo not drawn) [Eberconazole] |  | ≥8.23 | ≥2.70
3 | CCc1nc(N)nc(N)c1C#CC(C)c1cc(OC)cc(-c2ccncc2)c1 (stereo not drawn) [MMV1580844] | ≥19.10 |  | 
4 | Oc1c(C(Nc2nc3ccccc3s2)c2ccc(OC(F)F)cc2)ccc2cccnc12 (stereo not drawn) [MMV019724] |  | 1.03 | 
5 | O=C(/C(=C/c1ccc(Cl)cc1Cl)n1ccnc1)c1ccc(Cl)cc1 [MMV1634491] |  | ≥1.94 | ≥2.99
6 | CCOC(=O)Nc1cc(NC(C)CC(C)CN(CC)CC)c2nc(-c3ccccc3)c(-c3ccccc3)nc2n1 (stereo not drawn) [MMV1633967] |  | ≥1.22 | 
7 | Nc1nc(Nc2ccc3nc(-c4ccc(F)cc4)cc(N)c3c2)cc(-c2ccccc2)n1 [MMV1593541] |  | 0.43 | 
8 | C[C@H](c1cccc2ccccc12)N(C)Cc1ccccc1 [MMV1782221] |  |  | ≥2.26
9 | Cc1cccc(C)c1C(=O)Nc1nc(-c2ccccn2)cc2ccccc12 [MMV1581558] | ≥5.00 |  | 
10 | Cc1nc2ccc(Oc3ccccc3)cc2c2c1CCN2CCc1ccccc1 [MMV1634399] | ≥13.70 |  | 
11 | O=C(Nc1cccc(C2=NCCN2)c1)c1ccc(-c2ccc(C(=O)Nc3cccc(C4=NCCN4)c3)cc2)cc1 [MMV1580853] |  | ≥2.02 | 
12 | C(=C\c1nc2ccccc2[nH]1)/c1ccc2c(c1)OCO2 [MMV1582495] | ≥18.50 |  | 
13 | CN1c2ccc(Cl)cc2N(c2ccccc2)C(=O)c2cn(Cc3ccc(CN4CCOCC4)cc3)nc21 [MMV1782222] |  | ≥1.85 | 
14 | CCC(C)NCC(O)Cn1c2ccc(Cl)cc2c2cc(Cl)ccc21 (stereo not drawn) [MMV1578570] |  | ≥1.56 | 
15 | COc1ccc2sc3c(c2c1)NC(C)CNC3=O (stereo not drawn) [MMV1782115] |  | 0.62 | 
16 | O=C1C=C(c2ccccc2)S(=O)(=O)c2ccccc21 [1,1-dioxide 1-thioflavone] | ≥27.40 | ≥2.00 | 
17 | O[C@@](Cn1cnnn1)(c1ccc(F)cc1F)C(F)(F)c1ccc(-c2ccc(OCC(F)(F)F)cc2)cn1 [MMV1634386] |  | ≥4.18 | ≥ 10
18 | O=[N+]([O-])/C(Br)=C/c1ccc(Br)o1 [Furvina] |  |  | ≥2.38
19 | Cc1ccc(N2CCC(CCOc3ccc(S(C)(=O)=O)cc3)CC2)nn1 [MMV1634394] | ≥1.24 |  | 
20 | C=CCN(C(=O)OCc1ccc([N+](=O)[O-])cc1)C1CCN(CC[C@](C)(CN(C)S(=O)(=O)c2ccccc2)c2ccccc2)CC1 [MMV1782214] |  | ≥1.27 | 
